According to patent EP4745153A1 (Jiangsu Hengrui Pharmaceuticals Co., Ltd., priority 2023, dated 2025):

Assay: general procedure: Fmoc solid-phase peptide synthesis; Rink-amide MBHA resin, 0.54 mmole/g; HATU / 4-methylmorpholine
Details: whole synthesis, analytical ultra-high performance liquid chromatography and LC/MS

| Substance | final HPLC purity [%] |
| --- | --- |
| H-Aib-HGTFTSDLS-αK-LLE-K(-OEG-OEG-γGlu-C(O)-(CH2)18-COOH)-KAA-Iva-EFVEWLIEGGPSSGAPPPS-NH2 | 97.95 |
| H-Aib-HGTFTSDLSI-αL-LE-K(-OEG-OEG-γGlu-C(O)-(CH2)18-COOH)-KAA-Ac4c-EFVEWLLAGGPSSGAPPPS-NH2 | 95.39 |
| H-Aib-HGTFTSDLSI-αL-LE-K(-OEG-OEG-γGlu-C(O)-(CH2)18-COOH)-KAA-Iva-EFVEWLLAGGPSSGAPPPS-NH2 | 99.09 |
| H-Aib-HGTFTSDLSI-αL-LE-K(-OEG-OEG-γGlu-C(O)-(CH2)18-COOH)-KAAQEFVEWLLA-e-GPSSGAPPPS-NH2 | 95.29 |
| H-Aib-HGTFTSDLSI-αL-LE-K(-OEG-OEG-γGlu-C(O)-(CH2)18-COOH)-KAAQEFVEWLLAGGPSSGAPPPS-NH2 | 94.97 |
| H-Aib-HGTFTSDYS-αK-ILE-K(-OEG-OEG-γGlu-C(O)-(CH2)18-COOH)-KAAQEFVEWLLAGGPSSGAPPPS-NH2 | 96.89 |
| H-Aib-HGTFTSDYS-αK-ILE-K(-OEG-OEG-γGlu-C(O)-(CH2)18-COOH)-QAA-Iva-EFVEWLLAGGPSSGAPPPS-NH2 | 93.33 |
| H-Aib-HGTFTSDYS-αK-LLE-K(-OEG-OEG-γGlu-C(O)-(CH2)18-COOH)-KAA-Iva-EFVEWLIEGGPSSGAPPPS-NH2 | 87.55 |
| H-Aib-HGTFTSDYS-αK-LLE-K(-OEG-OEG-γGlu-C(O)-(CH2)18-COOH)-KAA-αS-EFVEWLIEGGPSSGAPPPS-NH2 | 99.27 |
| H-Aib-HGTFTSDYS-αK-LLE-K(-OEG-OEG-γGlu-C(O)-(CH2)18-COOH)-KAAQEFVEWLLAGGPSSGAPPPS-NH2 | 93.14 |
| H-Aib-HGTFTSDYS-αK-LLE-K(-OEG-OEG-γGlu-C(O)-(CH2)18-COOH)-QAA-Iva-EFVEWLLAGGPSSGAPPPS-NH2 | 99.50 |
| H-Aib-HGTFTSDYS-αK-YLE-K(-OEG-OEG-γGlu-C(O)-(CH2)18-COOH)-KAAQEFVEWLIEGGPSSGAPPPS-NH2 | 95.98 |
| H-Aib-HGTFTSDYS-αK-YLE-K(-OEG-OEG-γGlu-C(O)-(CH2)18-COOH)-KAAQEFVEWLLAGGPSSGAPPPS-NH2 | 97.18 |
| H-Aib-HGTFTSDYS-αK-YLE-K(-OEG-OEG-γGlu-C(O)-(CH2)18-COOH)-KAQQEFVEWLLAGGPSSGAPPPS-NH2 | 94.25 |
| H-Aib-HGTFTSDYSI-αL-LE-K(-OEG-OEG-γGlu-C(O)-(CH2)18-COOH)-KAA-Iva-EFVEWLLAGGPSSGAPPPS-NH2 | 99.02 |
| H-Aib-HGTFTSDYSI-αL-LE-K(-OEG-OEG-γGlu-C(O)-(CH2)18-COOH)-KAAQEFVEWLLA-e-GPSSGAPPPS-NH2 | 86.75 |
| H-Aib-HGTFTSDYSI-αL-LE-K(-OEG-OEG-γGlu-C(O)-(CH2)18-COOH)-KAAQEFVEWLLAGGPSSGAPPPS-NH2 | 95.58 |
| H-Aib-QGTFTSDYSI-αL-LE-K(-OEG-OEG-γGlu-C(O)-(CH2)18-COOH)-KAA-Aib-EFVEWLLAGGPSSGAPPPS-NH2 | 93.26 |
| Y-Aib-QGTFTSDYS-αK-ILE-K(-OEG-OEG-γGlu-C(O)-(CH2)18-COOH)-KAA-Iva-EFVEWLLAGGPSSGAPPPS-NH2 | 86.65 |
| Y-Aib-QGTFTSDYS-αK-LLE-K(-OEG-OEG-γGlu-C(O)-(CH2)18-COOH)-KAA-Iva-EFVEWLLAGGPSSGAPPPS-NH2 | 93.21 |
